Results reported in PMC12400800, “Significantly enhancing human antibody affinity via deep learning and computational biology-guided single-point mutations” (Briefings in Bioinformatics, 2025).

What was measured:
[1] = molecular target: T1, H7N9 HA with a T4 foldon trimerization domain (Influenza A virus H7N9, strain not …)
[2] = molecular target: T1, H7N9 HA with a T4 foldon trimerization …; assay: BLI

Binder | binding result [1] | Kd [2] [nM] | koff [2] [s⁻¹] | kon [2] [M⁻¹ s⁻¹] | Kd ([2]; one partner purified) [nM] | koff ([2]; one partner purified) [s⁻¹] | kon ([2]; one partner purified) [M⁻¹ s⁻¹]
H:D102I (antibody, V domains shown) VH: QVQLVESGAEVKKPGASVKVSCKASGYIFTSYDINWVRQATGQGLEWMGWMNPDSGDTGFAQKFQGRVTMTRNTSITTAYMELSSLTSEDTAVYYCATGNAICSGGSCYNWFDPWGQGTLVTVSS VL: SSELTQDPAVSVALGQTVRITCQGDRLRSYYASWYQQKPGQAPVLVIYGKNNRPSGIPDRFSGSSSGNTASLTITGAQAEDEADYYCNSRDTSGYHLVFGGGTKLTVL | binds | – | – | – | – | – | –
H:D102F (antibody, V domains shown) VH: QVQLVESGAEVKKPGASVKVSCKASGYIFTSYDINWVRQATGQGLEWMGWMNPDSGDTGFAQKFQGRVTMTRNTSITTAYMELSSLTSEDTAVYYCATGNAFCSGGSCYNWFDPWGQGTLVTVSS VL: SSELTQDPAVSVALGQTVRITCQGDRLRSYYASWYQQKPGQAPVLVIYGKNNRPSGIPDRFSGSSSGNTASLTITGAQAEDEADYYCNSRDTSGYHLVFGGGTKLTVL | binds | – | – | – | – | – | –
3L11-5 (3L11 L:D25S) (antibody, V domains shown, Human IgG1) VH: QVQLVESGAEVKKPGASVKVSCKASGYIFTSYDINWVRQATGQGLEWMGWMNPDSGDTGFAQKFQGRVTMTRNTSITTAYMELSSLTSEDTAVYYCATGNADCSGGSCYNWFDPWGQGTLVTVSS VL: SSELTQDPAVSVALGQTVRITCQGSRLRSYYASWYQQKPGQAPVLVIYGKNNRPSGIPDRFSGSSSGNTASLTITGAQAEDEADYYCNSRDTSGYHLVFGGGTKLTVL | – | 12.8 | 0.00141 | 108000 | – | – | –
3L11 human antibody (wild type) (antibody, V domains shown) VH: QVQLVESGAEVKKPGASVKVSCKASGYIFTSYDINWVRQATGQGLEWMGWMNPDSGDTGFAQKFQGRVTMTRNTSITTAYMELSSLTSEDTAVYYCATGNADCSGGSCYNWFDPWGQGTLVTVSS VL: SSELTQDPAVSVALGQTVRITCQGDRLRSYYASWYQQKPGQAPVLVIYGKNNRPSGIPDRFSGSSSGNTASLTITGAQAEDEADYYCNSRDTSGYHLVFGGGTKLTVL | – | – | – | – | 13.4 | 0.00138 | 101000
3L11-2 (3L11 L:S93Y) (antibody, V domains shown, Human IgG1) VH: QVQLVESGAEVKKPGASVKVSCKASGYIFTSYDINWVRQATGQGLEWMGWMNPDSGDTGFAQKFQGRVTMTRNTSITTAYMELSSLTSEDTAVYYCATGNADCSGGSCYNWFDPWGQGTLVTVSS VL: SSELTQDPAVSVALGQTVRITCQGDRLRSYYASWYQQKPGQAPVLVIYGKNNRPSGIPDRFSGSSSGNTASLTITGAQAEDEADYYCNSRDTYGYHLVFGGGTKLTVL | – | 4.95 | 0.000583 | 106000 | – | – | –
3L11-4 (3L11 L:H96N) (antibody, V domains shown, Human IgG1) VH: QVQLVESGAEVKKPGASVKVSCKASGYIFTSYDINWVRQATGQGLEWMGWMNPDSGDTGFAQKFQGRVTMTRNTSITTAYMELSSLTSEDTAVYYCATGNADCSGGSCYNWFDPWGQGTLVTVSS VL: SSELTQDPAVSVALGQTVRITCQGDRLRSYYASWYQQKPGQAPVLVIYGKNNRPSGIPDRFSGSSSGNTASLTITGAQAEDEADYYCNSRDTSGYNLVFGGGTKLTVL | – | – | – | – | 11.1 | 0.00126 | 108000
3L11-3 (3L11 L:G94N) (antibody, V domains shown, Human IgG1) VH: QVQLVESGAEVKKPGASVKVSCKASGYIFTSYDINWVRQATGQGLEWMGWMNPDSGDTGFAQKFQGRVTMTRNTSITTAYMELSSLTSEDTAVYYCATGNADCSGGSCYNWFDPWGQGTLVTVSS VL: SSELTQDPAVSVALGQTVRITCQGDRLRSYYASWYQQKPGQAPVLVIYGKNNRPSGIPDRFSGSSSGNTASLTITGAQAEDEADYYCNSRDTSNYHLVFGGGTKLTVL | – | 6.37 | 0.000689 | 100000 | – | – | –
3L11-6 (3L11 H:S55N) (antibody, V domains shown, Human IgG1) VH: QVQLVESGAEVKKPGASVKVSCKASGYIFTSYDINWVRQATGQGLEWMGWMNPDNGDTGFAQKFQGRVTMTRNTSITTAYMELSSLTSEDTAVYYCATGNADCSGGSCYNWFDPWGQGTLVTVSS VL: SSELTQDPAVSVALGQTVRITCQGDRLRSYYASWYQQKPGQAPVLVIYGKNNRPSGIPDRFSGSSSGNTASLTITGAQAEDEADYYCNSRDTSGYHLVFGGGTKLTVL | – | 2.93 | 0.000337 | 102000 | – | – | –
3L11-1 (3L11 L:S93N) (antibody, V domains shown, Human IgG1) VH: QVQLVESGAEVKKPGASVKVSCKASGYIFTSYDINWVRQATGQGLEWMGWMNPDSGDTGFAQKFQGRVTMTRNTSITTAYMELSSLTSEDTAVYYCATGNADCSGGSCYNWFDPWGQGTLVTVSS VL: SSELTQDPAVSVALGQTVRITCQGDRLRSYYASWYQQKPGQAPVLVIYGKNNRPSGIPDRFSGSSSGNTASLTITGAQAEDEADYYCNSRDTNGYHLVFGGGTKLTVL | – | 4.52 | 0.000514 | 102000 | – | – | –

Read-outs that look alike come from different tables or passages of the source.
